Source: patent US12441773B2, “Peptides, hydrogel compositions and methods of use thereof” (Regents of the University of Minnesota, priority 2019, dated 2025)
Where a SMILES comes first, the peptide text is derived from it. [ ]: non-standard residue; d: D form.

System: human red blood cells (RBC)
Format: cell-based
Conditions: calculated as LD50/MIC
Description: FIG. 7: The in vitro toxicity of soluble DGL13K and PEG-pro-DGL 13K was tested against human Red Blood Cells and hemolysis recorded (% lysis compared to dH2O).
The dose causing lysis of 50% (LD50) of human red blood cells (RBC) was determined and the therapeutic index (Tx Indx) was calculated as LD50/MIC.

Compound | Tx Indx (therapeutic index)
CC[C@@H](C)[C@@H](NC(=O)[C@@H](CCCCN)NC(=O)CN)C(=O)N[C@@H](C(=O)N[C@H](CCCCN)C(=O)N[C@H](CC(C)C)C(=O)N[C@H](CCCCN)C(=O)N[C@H](C)C(=O)N[C@H](CO)C(=O)N[C@H](CC(C)C)C(=O)N[C@H](CCCCN)C(=O)N[C@H](CC(C)C)C(=O)N[C@H](CC(C)C)C(N)=O)[C@H](C)CC [DGL13K, NH2-Gly-d-Lys-d-Ile-d-Ile-d-Lys-d-Leu-d-Lys-d-Ala-d-Ser-d-Leu-d-Lys-d-Leu-d-Leu-CONH2] (H-G[dK][dI][dI][dK][dL][dK][dA][dS][dL][dK][dL][dL]-NH2) | 96-384 X
CC[C@@H](C)[C@@H](NC(=O)[C@@H](CCCNC(=N)N)NC(=O)CN)C(=O)N[C@@H](C(=O)N[C@H](CCCNC(=N)N)C(=O)N[C@H](CC(C)C)C(=O)N[C@H](CCCNC(=N)N)C(=O)N[C@H](C)C(=O)N[C@H](CO)C(=O)N[C@H](CC(C)C)C(=O)N[C@H](CCCNC(=N)N)C(=O)N[C@H](CC(C)C)C(=O)N[C@H](CC(C)C)C(N)=O)[C@H](C)CC [DGL13R, NH2-Gly-d-Arg-d-Ile-d-Ile-d-Arg-d-Leu-d-Arg-d-Ala-d-Ser-d-Leu-d-Arg-d-Leu-d-Leu-CONH2] (H-G[dR][dI][dI][dR][dL][dR][dA][dS][dL][dR][dL][dL]-NH2) | 192-384 X
H-GKIIKLKASLKLL-NH2 [LGL13K] | 9-18 X
